# Data: patent US20230097866A1
# Test system: S. aureus ATCC 29213
# Experiment: MIC, CLSI broth microdilution, S. aureus ATCC 29213
# Format: cell-based, Staphylococcus aureus
row,Structure (SMILES),MIC ATCC 29213 [µg/mL]
1,COc1ccc2ncc(F)c(CC[C@]3(O)CC[C@@H](NCc4ccc5c(c4)OCCO5)CC3)c2n1 (relative stereo),0.063
2,COc1ccc2ncc(F)c(CC[C@]3(O)CC[C@H](NCc4ccc(Cl)c(Cl)c4)CC3)c2n1 (relative stereo),0.125
3,COc1ccc2ncc(F)c(CC[C@]3(O)CC[C@H](NCc4ccc5c(c4)OCCO5)CC3)c2n1 (relative stereo),1
